Results from publication PMC5431781, “Structural studies of the periplasmic portion of the diguanylate cyclase CdgH from Vibrio cholerae” (Scientific Reports, 2017).

The chains behind the UniProt entries cited, without tags or fusion partners. Residues count along the entry.
UniProt Q9KT38, 46-491 E122A/E56A/R109A limits assumed: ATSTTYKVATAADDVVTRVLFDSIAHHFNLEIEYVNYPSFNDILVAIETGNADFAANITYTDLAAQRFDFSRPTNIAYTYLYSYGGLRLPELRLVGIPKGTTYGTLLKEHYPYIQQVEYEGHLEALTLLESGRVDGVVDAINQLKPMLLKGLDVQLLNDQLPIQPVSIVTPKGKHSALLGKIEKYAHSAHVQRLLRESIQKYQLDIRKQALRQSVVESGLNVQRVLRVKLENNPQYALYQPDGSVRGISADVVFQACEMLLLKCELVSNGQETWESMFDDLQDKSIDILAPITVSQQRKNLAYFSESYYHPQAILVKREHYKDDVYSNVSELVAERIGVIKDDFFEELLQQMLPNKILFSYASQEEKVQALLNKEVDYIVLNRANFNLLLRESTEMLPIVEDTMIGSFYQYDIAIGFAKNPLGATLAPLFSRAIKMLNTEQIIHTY

Target: PBPb-I^E56A/R109A/E122A/PBPb-II (Vibrio cholerae, UniProt Q9KT38, E122A/E56A/R109A)
Test: ITC, amino acids vs tandem PBPb domains with triple-mutated PBPb-I (probes PBPb-II)
Details: ITC (iTC200), 20 mM Tris pH 8.0, 150 mM NaCl, 25 °C; protein purified without refolding

Question: For `N[C@@H](CC(=O)O)C(=O)O` [L-aspartate], which Kd is on record?
Answer: The Kd was “no measurable binding affinity”.
